A mixed list of measured activities; the numbers were collected in NIAID ChemDB.

Common to all: whole-cell or culture tests; organism: Respiratory syncytial virus; read-out: EC50

a–b is a range or a potency band.

structure,method,strain,cell line,value
O=c1n(Cc2nc3ccccc3n2CCCCO)c2cnccc2n1C1CC1,,Long A2 B-Washington,,0.009–0.05 µM
C[C@H](O)[C@@H]1C[C@H](CCn2nnc3c(N)ncnc32)C1(C)C,cytopathic effect,,HeLa,>200 µg/mL
COc1ccc(Cc2nccc3cc(OC)c(OC)cc23)cc1OC,cytopathic effect,A2,HeLa,12.8 µg/mL
O=c1cc(-c2ccc(O)c(-c3c(O)cc4oc(-c5ccc(O)cc5)cc(=O)c4c3O)c2)oc2cc(O)cc(O)c12,plaque count,,HEP-2,>100 µg/mL
CCOC(c1cccc(Br)n1)n1c(NC2CCN(CC(N)C(C)C)CC2)nc2ccccc21,,,,0.008 µM
C#Cc1c(C(N)=O)ncn1[C@@H]1O[C@H](CO)[C@@H](O)[C@H]1O,cytopathic effect,,HeLa,0.2 µg/mL
O=c1cc(-c2ccc(Oc3c(O)cc4oc(-c5ccc(O)cc5)cc(=O)c4c3O)cc2)oc2cc(O)cc(O)c12,neutral red,UTAH 89,MA-104,>3.2 µg/mL
CC1(C)[C@H](CO)C[C@@H]1Cn1cnc2c(=O)[nH]c(N)nc21,cytopathic effect,,HeLa,200 µg/mL
C[C@H]1C[C@@H](n2cnc3c(N)ncnc32)[C@H](O)[C@@H]1O,cytopathic effect,LONG,HeLa,≥40 µg/mL
CC(C)CCn1c(Cn2c(=O)n(Cc3ccccc3C(=O)N[C@H](CC(=O)O)C(=O)O)c3ccccc32)nc2ccccc21,cytopathic effect,Long (subtype A),HEP-2,0.01 µM
NC(=O)c1ncn([C@@H]2O[C@H](CO)[C@@H](O)[C@H]2O)n1,plaque count,46,HEP-2,4 µg/mL
Nc1cc(OC[C@H](CO)OCP(=O)(O)O)nc(N)n1,cytopathic effect,,,>15 µM
Fc1ccc(Cn2cnnc2CN(CCc2ccc(Br)cc2)Cc2ccc3ccccc3n2)cc1,,,,0.08 µM
C[C@H](Cn1cnc2c(N)ncnc21)OCP(=O)(O)O,cytopathic effect,,,>525 µM
Nc1nc2c(ncn2[C@H]2C[C@@H](O)[C@H](CO)O2)c(=O)[nH]1,cytopathic effect,A2,VERO B,>1000 µM
O=c1cc(-c2ccc(O)c(-c3c(O)cc(O)c4c(=O)cc(-c5ccc(O)cc5)oc34)c2)oc2cc(O)cc(O)c12,plaque count,,HEP-2,5.5 µg/mL
CCCc1cc(=O)oc2cc(O)c(C(=O)CC)c(O)c12,cytopathic effect,,,2 µg/mL
CC(C)CCCC(C)C1CCC2C3CC=C4CC(O)CCC4(C)C3CCC12C,cytopathic effect,,HeLa,>200 µM
Nc1ccn([C@@H]2C[C@@H](O)[C@H](CO)O2)c(=O)n1,,TYPE A,MA-104,>100 µM
Nc1ccn([C@@H]2C[C@H](CO)[C@@H](O)[C@H]2O)c(=O)n1,cytopathic effect,,HeLa,>70 µg/mL
C=C(C)n1c(=O)n(Cc2nc3ccccc3n2CCC(=N)N=[N+]=[N-])c2ccccc21,cytopathic effect,Long (subtype A),HEP-2,0.008 µM
C[C@H](COc1cc(N)nc(N)n1)OCP(=O)(O)O,cytopathic effect,,,>180 µM
CC(C)CCn1c(Cn2c(=O)n(Cc3ccc(P(=O)(O)O)cc3)c3ccccc32)nc2ccccc21,cytopathic effect,Long (subtype A),HEP-2,0.03 µM
O=C1CN(CCCn2c(Cn3c(=O)n(C4CC4)c4ccncc43)nc3ccccc32)C(=O)N1,,,,<50 µM
CC(C)CCn1c(Cn2c(=O)n(Cc3ccc(C(=O)N[C@@H](CP(=O)(O)O)C(=O)O)cc3)c3ccccc32)nc2ccccc21,cytopathic effect,Long (subtype A),HEP-2,0.03 µM
Nc1nc2c(ncn2[C@@H]2O[C@@H](CO)[C@H](O)[C@H]2O)c(=O)[nH]1,cytopathic effect,A2,VERO B,>1000 µM
NC(=O)c1ncn([C@@H]2O[C@H](CO)[C@@H](O)[C@H]2O)n1,cytopathic effect,,HeLa,6 µg/mL
NC(=O)c1[nH]nc([C@@H]2O[C@H](CO)[C@@H](O)[C@H]2O)c1O,cytopathic effect,58-8,HeLa,0.09 µg/mL
C[C@H](O)[C@@H]1C[C@H](Cn2cnc3c(=O)[nH]cnc32)C1(C)C,cytopathic effect,,HeLa,>400 µg/mL
[N-]=C=Nc1nncs1,cytopathic effect,,HEP-2,7.8 µg/mL
NC(=O)c1nc(F)c[nH]c1=O,plaque count,,HEP-2,41 µg/mL
C[C@H](O)[C@@H]1C[C@H](Cn2cnc3c(N)ncnc32)C1(C)C,cytopathic effect,,HeLa,2.4 µg/mL
C#Cc1c(C(N)=O)ncn1[C@@H]1O[C@H](CO)[C@@H](O)[C@H]1O,plaque count,TYPE B/SM-6148,HeLa,0.06 µg/mL
CCOC(c1cccc(C)n1)n1c(NC2CCN(CCN)CC2)nc2ccccc21,MTT,,HELA/M,0.013 µM
NC(=O)c1ncn([C@@H]2O[C@H](CO)[C@@H](O)[C@H]2O)n1,cytopathic effect,LONG,HeLa,3.6 µg/mL
O=c1[nH]c(=O)n([C@H]2C[C@H](O)[C@@H](CO)O2)cc1/C=C/Br,cytopathic effect,,HeLa,>400 µg/mL
NC(=O)c1ncn([C@@H]2O[C@H](CO)[C@@H](O)[C@H]2O)n1,cytopathic effect,LONG,HeLa,3 µg/mL
O=c1n(Cc2nc3ccccc3n2CCCCO)c2cnccc2n1C1CC1,,,,0.024 µM
Nc1cc2[nH]cnc2c(=O)[nH]1,cytopathic effect,58-13,HeLa,2 µg/mL
C/C=C1\[C@H](OC2O[C@H](CO)[C@@H](O)[C@H](O)[C@H]2O)OC=C(C(=O)O)[C@H]1CC(=O)OCCc1ccc(O)cc1,cytopathic effect,LONG,HEP-2,>150 µM
COc1c(C)c2c(c(O)c1CC(=O)O)C(=O)OC2,plaque count,TYPE A/NS-100,HeLa,0.16 µg/mL
C[C@H](O)[C@@H]1C[C@H](CCn2cnc3c(=O)[nH]cnc32)C1(C)C,cytopathic effect,,HeLa,3 µg/mL
Nc1ncnc2c1ccn2[C@@H]1O[C@H](CO)[C@@H](O)[C@H]1O,cytopathic effect,58-8,HeLa,1 µg/mL
NC(=O)c1ncn([C@@H]2O[C@H](CO)[C@@H](O)[C@H]2O)n1,plaque count,Y751,HEP-2,10.5 µM
Cc1cn([C@H]2C[C@@H](O)[C@H](CO)O2)c(=O)[nH]c1=O,cytopathic effect,A2,VERO B,>1000 µM
Cc1nnnn1/N=C/c1ccc(O)c(C(c2ccc(O)cc2)c2cc(/C=N/n3nnnc3C)ccc2O)c1,cell fusion,A2,HEP-2,0.0054 µM
Cc1nnnn1/C=C/c1ccc(O)c(C(c2ccc(O)cc2)c2cc(/C=N/n3nnnc3C)ccc2O)c1,cell fusion,,BHK-21,0.0054 µM
Nc1nccc2c1ncn2[C@@H]1C[C@H](CO)[C@@H](O)[C@H]1O,cytopathic effect,,HEP-2,9 µg/mL
NCCN1CCC(Nc2nc3ccccc3n2Cc2ccccn2)CC1,MTT,,HELA/M,0.398 µM
NC(=O)c1ncn([C@@H]2O[C@H](CO)[C@@H](O)[C@H]2O)n1,cytopathic effect,LONG,HeLa,4 µg/mL
Nc1ccn([C@@H]2C[C@@H](O)[C@H](CO)O2)c(=O)n1,,TYPE A,MA-104,>100 µM
c1ccc2c(c1)CSSC2,cytopathic effect,clone 5 (RD3-0028-resistant),HeLa,>244.4 µM
CC(C)CCCC(C)C1CCC2C3CC=C4CC(OC(=O)Nc5ccc(S(=O)(=O)O)c6cccc(S(=O)(=O)O)c56)CCC4(C)C3CCC12C,cytopathic effect,,HeLa,4 µM
CCC1[C@H](OC2O[C@H](CO)[C@@H](O)[C@H](O)[C@H]2O)OC=C(C(=O)O)[C@H]1CC(=O)OCCc1ccc(O)cc1,cytopathic effect,LONG,HEP-2,>150 µM
O=c1ccn([C@@H]2O[C@@H](CO)[C@H](O)[C@H]2O)c(=O)[nH]1,cytopathic effect,A2,VERO B,>1000 µM
Nc1ccc(S(=O)(=O)O)c2cccc(S(=O)(=O)O)c12,cytopathic effect,,HeLa,>200 µM

Again, the opening 5 rows:

O=c1n(Cc2nc3ccccc3n2CCCCO)c2cnccc2n1C1CC1 ; strain: Long A2 B-Washington ; value: 0.009–0.05 µM
C[C@H](O)[C@@H]1C[C@H](CCn2nnc3c(N)ncnc32)C1(C)C ; method: cytopathic effect ; cell line: HeLa ; value: >200 µg/mL
COc1ccc(Cc2nccc3cc(OC)c(OC)cc23)cc1OC ; method: cytopathic effect ; strain: A2 ; cell line: HeLa ; value: 12.8 µg/mL
O=c1cc(-c2ccc(O)c(-c3c(O)cc4oc(-c5ccc(O)cc5)cc(=O)c4c3O)c2)oc2cc(O)cc(O)c12 ; method: plaque count ; cell line: HEP-2 ; value: >100 µg/mL
CCOC(c1cccc(Br)n1)n1c(NC2CCN(CC(N)C(C)C)CC2)nc2ccccc21 ; value: 0.008 µM

ECn is the concentration giving n% inhibition of infection, replication or growth. Conditions beyond the fields shown may differ between rows. An empty or dashed field is not shown.